Test results published in patent US20230287087A1 (MAX PLANCK GESELLSCHAFT ZUR F RDERUNG DER WISSENSCHAFTEN E V, published 2023).

Target: SARS-CoV-2 spike protein (transiently expressed in transfected HeLa cells) (SARS-CoV-2, UniProt P0DTC2 14-1273)
Experiment: IF, spike-transfected HeLa cells

B1: Re6D08 (VHH)
VHH: QVQLVESGGGLVQAGGSLRLSCAASGRTFSSYAMGWFHQAPGKEREFVATINWSGDSTYYADSVKGRFTISRDNAKNTVYLQMNSLKPEDTAVYYCAAVVDPSPTYYSGKYYPPRVEYWGKGTQVTVSS
binding result: binds

B2: Re5B06 (VHH)
VHH: QVQLVESGGGLVQPGGSLRLSCAASGSIRSIYATVWFRQAPGKEHEWVGSITSSNVTTYADSVKGRFTISRDNAKKTVYLQMNSLKPEDTALYYCNVHFASEYSDYAQIQGQGTQVTVSS
binding result: binds

B3: Re8C06 (VHH)
VHH: QVQLVESGGGLVQAGGSLRLSCAASGRTDTIYNMGWFRQAPGKEREFVAAISWSDGKTTFADSVKGRFTISRDNAKNTVYLQMNSLKPEDTANYYCAAKAFLVAGRSLEEYDYSGQGTQVTVSS
binding result: binds

B4: Re21B09 (VHH)
VHH: QVQLVESGGGLVQPGGSLRLSCAASGFTLDNYAIGWFRQAPGKEREGVSCIRSSDGSTYYADSVKGRFTISKDNAKNTVYLQMNSLKPEDTAVYYCATDGTFNPPCDDLYSWYFPERQGTQVTVSS
binding result: binds

B5: Re25H10 (VHH)
VHH: QVQLVESGGGLVQPGGSLRLSCAASGFTFSSSAMSWARQAPGKGLEWVSTISEDGSTYYADSMKGRFTISRDNAKNTVYLQMNSLKPEDTAAYYCATSTEPRTVVAGWGDYLGQGTQVTVSS
binding result: binds
